For the assay, the target named is SARS‐CoV PL^pro (Severe acute respiratory syndrome coronavirus, UniProt P0C6X7). Briefly: biochemical.

pIC50: −log10 of the molar value. Structures can show the parent of a compound that is named as a salt.

With `Cc1ccc(N)cc1C(=O)N[C@H](C)c1cccc2ccccc12` [Compound 2 b, (R )‐5‐Amino‐2‐methyl‐N‐[1‐(naphth‐1‐yl)ethyl]benzamide hydrochloride, reference compound], the pIC50 is 5.96.

Broadly, the pIC50 is the IC50 on a negative log10 scale, so that one unit is a factor of ten. Low values mean a high IC50, high ones a low IC50.

For the origin of these results see PMC7894572 (Chemmedchem, 2020).
